{
  "source": "patent US6673355B1",
  "about": "(priority 1995, dated 2004)",
  "tested_on": "CD1 mice",
  "test": "Diarrhea induction after IP administration to CD1 mice",
  "format": "in vivo, mouse",
  "details": "IP administration of 50-100 nmol peptide",
  "data": [
    {"sequence": "DKLTTREIEQVELLKRIKD KLT", "values": [
      {"measurement": "# responders/total # tested", "result": "0/11"},
      {"measurement": "% Diarrhea", "result": 0, "unit": "%"}
    ]}
  ]
}
